Data taken from PubChem BioAssay AID1159564 (GlaxoSmithKline (GSK), 2015).

Tested on: L. donovani-infected THP-1 macrophages, intracellular amastigote imaging
Assay: antileishmanial activity in infected THP-1 macrophages – imaging, THP-1 host macrophages, host toxicity (AID 1159564)

## CC(C)(C)c1ccc(NC2(C(N)=O)CCN(Cc3ccccc3)CC2)cc1
  IC50: 16 µM
Measured here: THP-1 host cell toxicity
  IC50: 25 µM
Measured here: amastigotes per macrophage
  IC50: 10 µM
